Pooled drug test results. Numbers come from NIAID ChemDB, via PubChem.

Common to all: growth or infection tests; species: HIV-2; endpoint: EC50

Blank or dashed fields: not listed here. Conditions beyond the fields shown may differ between rows. ECn: concentration that inhibits the pathogen or its effect by n%.

compound	cell line	method	strain	result
Cc1ccc(S(=O)(=O)NC(Cc2ccccc2)c2nnc(SCc3ccccc3)o2)cc1	MT-4	-	ROD	>11.67 µg/mL
CC(NC(=S)NC(=O)CCCN1C(=O)c2ccccc2C1=O)C(=O)O	MT-4	MTT	ROD	>125 µM
CCCCCCCCCC[N+](C)(C)CCCNCc1c(O)cc2c(c1O)-c1cc(ccc1O)[C@H]1NC(=O)[C@@H]3NC(=O)C4NC(=O)[C@@H](Cc5ccc(c(Cl)c5)Oc5cc3cc(c5O)Oc3ccc(cc3Cl)[C@@H](O)[C@H](NC1=O)C(=O)N[C@@H]2C(=O)O)NC(=O)[C@H](N)c1ccc(O)c(c1)Oc1cc(O)cc4c1	CEM	syncytia	EHO	6.8 µM
NC/C=C/Cn1cc(F)c(=O)[nH]c1=O	CEM	syncytia	-	>100 µM
S=c1[nH]c(-c2ccccc2)c(-c2ccccc2)n1Nc1cccc(Cl)c1	MT-4	cytopathic effect / MTT	ROD	>36.31 µM
O=C(CCCN1C(=O)c2ccccc2C1=O)NC(=S)NC(Cc1ccc(O)cc1)C(=O)O	MT-4	MTT	ROD	>37.82 µM
CCCCO[C@]12CS(=O)(=O)O[C@@]13C(CN2)O[C@@H](n1cc(C)c(=O)[nH]c1=O)[C@@H]3O[Si](C)(C)C(C)(C)C	CEM	-	ROD	>10 µM
CC(C)CN(C[C@@H](O)[C@H](Cc1ccccc1)NC(=O)O[C@H]1CO[C@H]2OCC[C@H]21)S(=O)(=O)c1ccc2nc(NC3CCN(C4CCCC4)CC3)sc2c1	MT-4	reporter gene	ROD	0.0027 µM
Cc1cc(C#N)cc(C)c1Oc1nc(Nc2ccc(C#N)cc2)ncc1SCC(=O)NCC1CCCO1	MT-4	MTT	ROD	>25.4 µM
Cc1cn([C@H]2C[C@H](O)[C@@H](CO)O2)c(=O)n(C)c1=O	CEM	microscopy	ROD	>400 µg/mL
CN[C@H](CC(C)C)C(=O)N[C@H]1C(=O)N[C@@H](CC(N)=O)C(=O)N[C@H]2C(=O)N[C@H]3C(=O)N[C@H](C(=O)N[C@H](C(=O)O)c4cc(O)cc(O)c4-c4cc3ccc4O)[C@H](O)c3ccc(c(Cl)c3)Oc3cc2cc(c3O[C@@H]2O[C@H](CO)[C@@H](O)[C@H](O)[C@H]2O[C@H]2C[C@](C)(N)[C@H](O)[C@H](C)O2)Oc2ccc(cc2Cl)[C@H]1O	CEM	syncytia	-	22 µM
COc1ccc(CSc2nc(C(=O)c3cccc(F)c3)c(C)c(=O)[nH]2)cc1	MT-4	MTT	-	>325 µM
Cc1ccc(S(=O)(=O)NC(Cc2ccccc2)c2nnc(SCc3ccc(Br)cc3)o2)cc1	MT-4	-	ROD	>82.1 µg/mL
C/C(=N\Nc1nc(-c2ccc([N+](=O)[O-])cc2)cs1)c1ccc(-c2ccc(Br)cc2)cc1	MT-4	MTT	ROD	>66.15 µM
Cc1cc(C)c(Nc2nc(NC3CCN(Cc4ccc(Cl)c(Cl)c4)CC3)nc3nc[nH]c23)c(C)c1	MT-4	MTT	ROD	>189 µM
Cc1cc(C#N)cc(C)c1Oc1nc(Nc2ccc(C#N)cc2)ncc1SCC(=O)NC1CC1	MT-4	MTT	ROD	>30.7 µM
COC(=O)/C=C1\S/C(=N/N=C/c2cc([N+](=O)[O-])ccc2O)NC1=O	MT-4	cytopathic effect / MTT	ROD	>0.088 µM
C#CCO[C@]12CS(=O)(=O)O[C@@]13[C@@H](CN2)O[C@@H](n1cc(C)c(=O)[nH]c1=O)[C@@H]3O[Si](C)(C)C(C)(C)C	CEM	-	ROD	>25 µM
C(=N\Nc1nc(-c2ccccc2)cs1)/c1ccccn1	MT-4	MTT	ROD	>2.97 µM
Nc1ncnc2c1ncn2C/C=C/CN1C(=O)c2ccccc2C1=O	CEM	syncytia	-	>20 µM
CC(C)(C)C(=O)OC[C@@H]1C=C[C@H](n2cc(Cl)c(=O)[nH]c2=O)O1	CEM + CEM/0	syncytia	ROD	≥10 µM
Cc1cc(C)c(Nc2nc(NC3CCN(Cc4ccc(C#N)cc4)CC3)nc3nc[nH]c23)c(C)c1	MT-4	MTT	ROD	>26.79 µM
Cc1cn([C@@H]2O[C@@H]3CN[C@@]4(C(N)=O)CS(=O)(=O)O[C@@]34[C@H]2O[Si](C)(C)C(C)(C)C)c(=O)[nH]c1=O	MT-4	-	ROD	>125 µM
CSCCC(NS(=O)(=O)c1ccc(Cl)cc1)c1nnc(SCc2ccc(Cl)cc2)o1	MT-4	-	ROD	>11.88 µg/mL
Cc1cn([C@@H]2O[C@@H]3CN[C@@]4(OCc5ccccc5)CS(=O)(=O)O[C@@]34[C@H]2O)c(=O)[nH]c1=O	MT-4	-	ROD	>250 µM
O=C(CCCN1C(=O)c2ccccc2C1=O)NC(=S)NC(CO)C(=O)O	MT-4	MTT	ROD	>89.5 µM
COc1ccc(S(=O)(=O)Nc2nnc(C(CC(C)C)NS(=O)(=O)c3ccc(C)cc3)s2)cc1	MT-4	MTT	ROD	>61.05 µM
Cc1cn([C@H]2C[C@H](N=[N+]=[N-])[C@@H](CO)O2)c(=O)[nH]c1=O	MT-4	MTT / absorbance	ROD	0.0082 µM
COC(=O)CSc1cnc(Nc2ccc(C#N)cc2)nc1Oc1c(C)cc(C#N)cc1C	MT-4	MTT	ROD	>3.32 µM
Cc1ccc(S(=O)(=O)NC(CC(C)C)c2nnc(N(S(=O)(=O)c3ccc(Cl)cc3)S(=O)(=O)c3ccc(Cl)cc3)s2)cc1	MT-4	MTT	ROD	>4.09 µM
NC/C=C/Cn1cnc2c(N)ncnc21	CEM	syncytia	-	>50 µM
Cc1cn([C@@H]2OC3CN[C@@]4(OCC(C)C)CS(=O)(=O)O[C@@]34[C@H]2O[Si](C)(C)C(C)(C)C)c(=O)[nH]c1=O	MT-4	-	ROD	>10 µM
CCc1c(Sc2cc(C)cc(C)c2)n(CCCCC(=O)OC)c(=O)[nH]c1=O	PBMC	-	D194	>10 µM
Cc1cn([C@H]2C[C@H](F)[C@@H](CO)O2)c(=O)n(CCF)c1=O	CEM	microscopy	ROD	90 µg/mL
Cc1cn([C@H]2C[C@@H](OCP(=O)(O)O)CO2)c(=O)nc1N	MT-4	MTT / absorbance	ROD	>410 µM
O=S(=O)(O)OCC1OC2OC3C(COS(=O)(=O)O)OC(OC4C(COS(=O)(=O)O)OC(OC5C(COS(=O)(=O)O)OC(OC6C(COS(=O)(=O)O)OC(OC7C(COS(=O)(=O)O)OC(OC8C(COS(=O)(=O)O)OC(OC9C(COS(=O)(=O)O)OC(OC1C(OS(=O)(=O)O)C2OS(=O)(=O)O)C(OS(=O)(=O)O)C9OS(=O)(=O)O)C(OS(=O)(=O)O)C8OS(=O)(=O)O)C(OS(=O)(=O)O)C7OS(=O)(=O)O)C(OS(=O)(=O)O)C6OS(=O)(=O)O)C(OS(=O)(=O)O)C5OS(=O)(=O)O)C(OS(=O)(=O)O)C4OS(=O)(=O)O)C(OS(=O)(=O)O)C3OS(=O)(=O)O	MT-4	cytopathic effect / MTT	ROD	0.4 µg/mL
COC(=O)C(CCSC)NC(=O)CCCN1C(=O)c2ccccc2C1=O	MT-4	MTT	ROD	>18.85 µM
CC(C)N(C[C@H](O)[C@H](Cc1ccccc1)NC(=O)C(CC(N)=O)NC(=O)C1C=Cc2ccccc2N1)NC(=O)OC(C)(C)C	MT-2	cytopathic effect / RT activity	ROD	0.004 µM
CC(=O)OCC1=C[C@@H]2C(=O)[C@]3(C=C(C)[C@H](OC(C)=O)[C@@]3(O)[C@@H]1OC(C)=O)[C@H](C)C[C@@H]1[C@H]2C1(C)C	MT-4	cytopathic effect / MTT	EHO	0.074 µM
COC(=O)/C=C1\S/C(=N/N=C/c2cc(OC)c(O)c(OC)c2)NC1=O	MT-4	cytopathic effect / MTT	ROD	>14.5 µM
Cc1ncn(Nc2cccc(Cl)c2)c1-c1ccccc1	MT-4	cytopathic effect / MTT	ROD	1.65 µM
Cc1cc(C#N)cc(C)c1Oc1nc(Nc2ccc(C#N)cc2)ncc1SCC(=O)NCCCN1CCOCC1	MT-4	MTT	ROD	>27.1 µM
Cc1ccc([C@H]2C[C@]23C(=O)N(C)c2ccccc23)cc1	MT-4	MTT	ROD	>0.39 µg/mL
COc1cccc(Nn2c(-c3ccccc3)c(C)[nH]c2=S)c1	MT-4	cytopathic effect / MTT	ROD	>12.3 µg/mL
Cc1cn([C@H]2C[C@H](F)[C@@H](CO)O2)c(=O)n(C)c1=O	CEM	microscopy	ROD	>400 µg/mL
CCCOC(=O)[C@H](Cc1ccccc1)NP(=O)(CO[C@H]1CO[C@@H](n2cnc3c(NC4CC4)nc(N)nc32)C1)N[C@@H](Cc1ccccc1)C(=O)OCCC	MT-4	MTT / absorbance	ROD	3.99 µM
Cc1cc(C)c(Nc2nc(NC3CCN(Cc4ccccc4C#N)CC3)nc3nc[nH]c23)c(C)c1	MT-4	MTT	ROD	>125 µM
COC(=O)/C=C1\S/C(=N/N=C/c2ccc(N(C)C)cc2)NC1=O	MT-4	cytopathic effect / MTT	ROD	>87.25 µM
CCO[C@]12CS(=O)(=O)O[C@@]13[C@@H](CN2)O[C@@H](n1ccc(=O)[nH]c1=O)[C@@H]3O[Si](C)(C)C(C)(C)C	MT-4	-	ROD	>50 µM
COc1cccc(Nn2cnc(C)c2-c2ccccc2)c1	MT-4	cytopathic effect / MTT	ROD	>34.44 µM
O=c1[nH]c(=O)n([C@H]2C=C[C@@H](CO)O2)cc1I	CEM + CEM TK-	syncytia	ROD	>50 µM
Cc1ccnc2c1NC(=O)c1cccnc1N2C1CC1	MT-4	MTT	ROD	>4 µM
C/C(=N\Nc1nc(-c2ccc([N+](=O)[O-])cc2)cs1)c1ccc(-n2ccnc2)cc1	MT-4	MTT	ROD	>38.9 µM
Nc1ccn(C23C=C[C@@H](CO)[C@@H]2C3)c(=O)n1	MT-4	MTT	ROD	>61.8 µg/mL
Cc1cc(C)c(Nc2nc(NC3CCN(Cc4ccc([N+](=O)[O-])cc4)CC3)nc3nc[nH]c23)c(C)c1	MT-4	MTT	ROD	>21.8 µM
COC(=O)/C=C1\S/C(=N/N=C/C2CCCCC2)NC1=O	MT-4	cytopathic effect / MTT	ROD	>57.53 µM
CCCOC(=O)[C@H](Cc1ccccc1)NP(=O)(CO[C@H]1CO[C@@H](n2cnc3c(=O)[nH]cnc32)C1)N[C@@H](Cc1ccccc1)C(=O)OCCC	MT-4	MTT / absorbance	ROD	>95.1 µM
CCO[C@]12CS(=O)(=O)O[C@@]13C(CN2)O[C@@H](n1cc(C)c(=O)[nH]c1=O)[C@@H]3O[Si](C)(C)C(C)(C)C	MT-4	-	ROD	>10 µM
COC(=O)CCSc1cnc(Nc2ccc(C#N)cc2)nc1Oc1c(C)cc(C#N)cc1C	MT-4	MTT	ROD	>34.7 µM
COC(=O)c1[nH]c(=S)n(Nc2cccc(Cl)c2)c1C	MT-4	cytopathic effect / MTT	ROD	>48.8 µM
O=C1c2ccccc2C(=O)N1C/C=C/Cn1ccc(=O)[nH]c1=O	CEM	syncytia	-	>100 µM
Cc1cc(C)c(Nc2nc(NC3CCN(Cc4ccc(F)cc4)CC3)nc3nc[nH]c23)c(C)c1	MT-4	MTT	ROD	>13.97 µM
CSCCC(NS(=O)(=O)c1ccc(C)cc1)c1nnc(SCc2ccc(Br)cc2)o1	MT-4	-	ROD	>11.8 µg/mL
Cc1cc(S(=O)(=O)Nc2nnc3c4ccccc4cnn23)c(S)cc1Cl	CEM	p24	ROD	7.8 µM
Cc1ccc(S(=O)(=O)NC(C)c2nnc(SCc3ccc(Br)cc3)o2)cc1	MT-4	-	ROD	>75.33 µg/mL
Cc1ccnc2c1NC(=O)c1cccnc1N2C1CC1	MT-4	MTT	ROD	4 µM
[C-]#[N+][C@H]1C[C@H](n2cc(C)c(=O)[nH]c2=O)O[C@@H]1CO	MT-4	cytopathic effect	LAV-2	0.8 µM
Cn1cc(NC(=O)Nc2cc(C(=O)Nc3cc(C(=O)Nc4ccc(P(=O)(O)O)c5cc(P(=O)(O)O)ccc45)n(C)c3)n(C)c2)cc1C(=O)Nc1cc(C(=O)Nc2ccc(P(=O)(O)O)c3cc(P(=O)(O)O)ccc23)n(C)c1	CEM + CEM-SS	cytopathic effect / XTT	ROD	>200 µM
Cc1cc(C#N)cc(C)c1Oc1nc(Nc2ccc(C#N)cc2)ncc1SCC(=O)Nc1ccc(S(C)(=O)=O)cc1	MT-4	MTT	ROD	>214 µM
COC(=O)C(C)NP(=O)(OC[C@@H]1C=C[C@H](n2cc(F)c(=O)[nH]c2=O)O1)Oc1ccccc1	CEM + CEM/0	syncytia	ROD	33 µM
Cc1cn([C@H]2C[C@H](N=[N+]=[N-])[C@@H](CO)O2)c(=O)[nH]c1=O	MT-4	MTT	ROD	0.0018 µM
Cc1ncn(Nc2cccc(Cl)c2)c1-c1cccc(Br)c1	MT-4	cytopathic effect / MTT	ROD	0.91 µM
COc1ccc(CSc2nc(C(=O)c3ccc(F)cc3)c(C)c(=O)[nH]2)cc1	MT-4	MTT	-	>225 µM
NC/C=C\Cn1cnc2c(N)ncnc21	CEM	syncytia	-	≥20 µM

The last 6 rows once more:

compound	cell line	method	strain	result
Cc1cc(C#N)cc(C)c1Oc1nc(Nc2ccc(C#N)cc2)ncc1SCC(=O)Nc1ccc(S(C)(=O)=O)cc1	MT-4	MTT	ROD	>214 µM
COC(=O)C(C)NP(=O)(OC[C@@H]1C=C[C@H](n2cc(F)c(=O)[nH]c2=O)O1)Oc1ccccc1	CEM + CEM/0	syncytia	ROD	33 µM
Cc1cn([C@H]2C[C@H](N=[N+]=[N-])[C@@H](CO)O2)c(=O)[nH]c1=O	MT-4	MTT	ROD	0.0018 µM
Cc1ncn(Nc2cccc(Cl)c2)c1-c1cccc(Br)c1	MT-4	cytopathic effect / MTT	ROD	0.91 µM
COc1ccc(CSc2nc(C(=O)c3ccc(F)cc3)c(C)c(=O)[nH]2)cc1	MT-4	MTT	-	>225 µM
NC/C=C\Cn1cnc2c(N)ncnc21	CEM	syncytia	-	≥20 µM